Target: LcrV (V antigen) of Yersinia pestis (Yersinia pestis) (UniProt P0C7U7)
Test: SPR

IFNγ mutant S1 (from UniProt P01579 24-161) (ligand)
maximum response (RU) at 4 µg/mL: 175 RU

From PMC3001473 (PLoS ONE, 2010)
